Measured values taken from the supplement of paper PMC12637763.
This is one part of the list. Env chains of viruses from a treatment-interruption trial, translated from the printed DNA. IC50 / IC80 of two broadly neutralizing antibodies; lower = more sensitive virus; >50 µg/ml means not reached and <0.001 µg/ml is below the lowest dose. No active / inactive call.

Key:
antibody 10-1074 [1] = experiment: neutralization IC50; higher = virus less sensitive to the antibody
Description: (§1)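 Pseudovirus bearing the Env chain mixed with antibody, from 50 µg/ml in fivefold dilutions, on TZM-bl reporter cells, in duplicate.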

antibody 3BNC117 [2] = experiment: as above
Description: as §1

antibody 10-1074 [3] = experiment: neutralization IC80; higher = virus less sensitive to the antibody
Description: as §1

antibody 3BNC117 [4] = experiment: as above
Description: as §1

Binder	neutralization IC50 (antibody 10-1074 [1]) [ng/mL]	neutralization IC50 (antibody 3BNC117 [2]) [µg/mL]	neutralization IC80 (antibody 10-1074 [3]) [µg/mL]	neutralization IC80 (antibody 3BNC117 [4]) [µg/mL]
HIV-1 Env, rebound clone, placebo arm (protein) MKVRGTKMNWQHLWWRWGTMLLGMLMICKATEEKWVTVYYGVPVWKEATTTLFCASDAKAYEKEAHNVWATHACVPTDPSPQEVVLENVTENFNMWKNNMVEQMHEDIISLWDQSLKPCVKLTPLCVTLNCTDYTNSNSTNHTNSNSSSPTPTAGGEIKNCSFNITTNIRDKIKKEHALFYSLDVVQIDINDNTSYRLISCNTSVITQACPKTTFEPIPIYYCAPAGFAILKCNNKTFDGKGPCKNVSTVQCTHGIRPVVSTQLLLNGSLAEKEIVIRSDNFSDNTKNIIVQLKDPVVINCTRPNNNTRKGIHIGPGRAFYATGKVIGDIRQAYCNISKEEWNKTLGQIVKKLGAQFGNKTTMIFNQSSGGDPEIVTHSFNCGGEFFYCNTSALFNSTWSSNDGNGTWNKTNSTETNSTEIILQCRIKQIVNMWQEVGKAMYAPPIKGPIRCSSNITGLILTRDGGNNTGNNSETFRPAGGNMRDNWRSELYKYKIVKIEPLGIAPTKAKRRTVQREKRAVTMGAMFLGFLGAAGSTMGAASLTLTVQARQLLSGIVQQQNNLLRAIEAQQHLLQLTVWGIKQLQARVLAVERYLADQRFLGIWGCSGKLICTTTVPWNNSWSNKSLDSIWNNMTWMQWEKEIENYTGEIYNLIEQAQNQQEQNERELLELDKWASLWNWFDIPNWLWYIKIFIMIVGGLIGLRIVFAVLSIVNRVRQGYSPLSLQTLLPTPRGPDRPEGIEGEGGERDRDTSIRLVDGFLALFWDDLRNLCLFSYRHLRDLLLIAARIVELLGLRGWEILKYLWNLLLYWSQELKNSAISLLDATAIAVAEGTDRIIEAVRRFCRGVLHIPRRIRQGFERALQ	6	0.154	0.049	0.703
HIV-1 Env, rebound clone, placebo arm (protein) MKVRGTKMNWQHLWWRWGTMLLGMLMICKATEEKWVTVYYGVPVWKEATTTLFCASDAKAYEKEAHNVWATHACVPTDPSPQEVVLENVTENFNMWKNNMVEQMHEDIISLWDQSLKPCVKLTPLCVTLNCTDYTNSNSTNHTNSNSSSPTPTAGGEIKNCSFNITTNIRDKIKKEHALFYSLDVVQIDINDNTSYRLISCNTSVITQACPKTTFEPIPIYYCAPAGFAILKCNNKTFDGKGPCKNVSTVQCTHGIRPVVSTQLLLNGSLAEKEIVIRSDNFSDNTKNIIVQLKDPVVINCTRPNNNTRKGIHIGPGKAFYATGKVIGDIRQAYCNISKEEWNKTLGQIVKKLGAQFGNKTTMIFNQSSGGDPEIVTHSFNCGGEFFYCNTSALFNSTWSSNDGNGTWNKTNSTETNSTEIILQCRIKQIVNMWQEVGKAMYAPPIKGPIRCSSNITGLILTRDGGNNTGNNSETFRPAGGNMRDNWRSELYKYKIVKIEPLGIAPTKAKRRTVQREKRAVTMGAMFLGFLGAAGSTMGAASLTLTVQARQLLSGIVQQQNNLLRAIEAQQHLLQLTVWGIKQLQARVLAVERYLADQRFLGIWGCSGKLICTTTVPWNNSWSNKSLDSIWNNMTWMQWEKEIENYTGEIYNLIEQAQNQQEQNERELLELDKWASLWNWFDISNWLWYIKIFIMIVGGLIGLRIVFAVLSIVNRVRQGYSPLSLQTLLPTPRGPDRPEGIEGEGGERDRDTSIRLVDGFLALFWDDLRNLCLFSYRHLRDLLLIAARIVELLGLRGWEILKYLWNLLLYWSQELKNSAISLLDATAIAVAEGTDRIIEAVRRFCRGVLHIPRRIRQGFERALQ	4	0.073	0.016	0.264
HIV-1 Env, rebound clone, placebo arm (protein) MKVRGTKMNWQHLWWRWGTMLLGMLMICKATEEKWVTVYYGVPVWKEATTTLFCASDTKAYEKEAHNVWATHACVPTDPSPQEVVLENVTENFNMWKNNMVEQMHEDIISLWDQSLKPCVKLTPLCVTLNCTDYTNSNSTNHTNSNSSSPTPTAGGEIKNCSFNITTNIRDKIKKEHALFYSLDVVQIDINDNTSYRLISCNTSVITQACPKTTFEPIPIYYCAPAGFAILKCNNKTFDGKGPCKNVSTVQCTHGIRPVVSTQLLLNGSLAEKEIVIRSDNFSDNTKNIIVQLKDPVVINCTRPNNNTRKGIHIGPGRAFYATGKVIGDIRQAYCNISKEEWNKTLGQIVKKLGAQFGNKTTMIFNQSSGGDPEIVTHSFNCGGEFFYCNTSALFNSTWSSNDGNGTWNKTNSTETNSTEIILQCRIKQIVNMWQEVGKAMYAPPIKGPIRCSSNITGLILTRDGGNNTGNNSETFRPAGGNMRDNWRSELYKYKIVKIEPLGIAPTKAKRRTVQREKRAVTMGAMFLGFLGAAGSTMGAASLTLTVQARQLLSGIVQQQNNLLRAIEAQQHLLQLTVWGIKQLQARVLAVERYLADQRFLGIWGCSGKLICTTTVPWNNSWSNKSLDSIWNNMTWMQWEKEIENYTGEIYNLIEQAQNQQEQNERELLELDKWASLWNWFDISNWLWYIKIFIMIVGGLIGLRIVFAVLSIVNRVRQGYSPLSLQTLLPTPRGPDRPEGIEGEGGERDRDTSIRLVDGFLALFWDDLRNLCLFSYRHLRDLLLIAARIVELLGLRGWEILKYLWNLLLYWSQELKNSAISLLDATAIAVAEGTDRIIEAVRRFCRGVLHIPRRIRQGFERALQ	5	0.109	0.014	0.477
HIV-1 Env, rebound clone, placebo arm (protein) MKVRGTKMNWQHLWWRWGTMLLGMLMICKATEEKWVTVYYGVPVWKEATTTLFCASDAKAYEKEAHNVWATHACVPTDPSPQEVVLENVTENFNMWKNNMVEQMHEDIISLWDQSLKPCVKLTPLCVTLNCTDYTNSNSTNHTNSNSSSPTPTAGGEIKNCSFNITTNIRDKIKKEHALFYSLDVVQIDINDNTSYRLISCNTSVITQACPKTTFEPIPIYYCAPAGFAILKCNNKTFDGKGPCKNVSTVQCTHGIRPVVSTQLLLNGSLAEKEIVIRSDNFSDNTKNIIVQLKDPVVINCTRPNNNTRKGIHIGPGRAFYATGKVIGDIRQAYCNISKEEWNKTLGQIVKKLGAQFGNKTTMIFNQSSGGDPEIVTYSFNCGGEFFYCNTSALFNSTWSSNDGNGTWNKTNSTETNSTEIILQCRIKQIVNMWQEVGKAMYAPPIKGPIRCSSNITGLILTRDGGNNTGNNSETFRPAGGNMRDNWRSELYKYKIVKIEPLGIAPTKAKRRTVQREKRAVTMGAMFLGFLGAAGSTMGAASLTLTVQARQLLSGIVQQQNNLLRAIEAQQHLLQLTVWGIKQLQARVLAVERYLADQRFLGIWGCSGKLICTTTVPWNNSWSNKSLDSIWNNMTWMQWEKEIENYTGEIYNLIEQAQNQQEQNERELLELDKWASLWNWFDISNWLWYIKIFIMIVGGLIGLRIVFAVLSIVNRVRQGYSPLSLQTLLPTPRGPDRPEGIEGEGGERDRDTSIRLVDGFLALFWDDLRNLCLFSYRHLRDLLLIAARIVELLGLRGWEILKYLWNLLLYWSQELKNSAISLLDATAIAVAEGTDRIIEAVRRFCRGVLHIPRRIRQGFERALQ	3	0.153	0.017	0.643
HIV-1 Env, rebound clone, placebo arm (protein) MRVKGIRKSYQPLWVGGILLLGMLMLCSTTEQLWVTVYYGVPVWKEATTTLFCASDAKGYDTEAHNVWATHACVPTDPNPQELKLENVTENFNMWKNGMVQQMHEDIISLWDQSIKPCVKLTPLCVTLNCSGVNINNTNANTTSNNTSWREMKEEIKNCSFNHTDTRNKMRKDYALFNSLDVIPIDRNDSTSYMLTSCNTSVITQACPKISFEPIPIHYCAPAGFAILKCNDKNFNGTGPCKKVSLVQCTHGIKPVVSTQLLLNGSLAEEDIVIRSENFTNNAKTIIVQLNSSIEITCIRPNNNTRKSIHLGPGAAFYATGDIIGDIRKAYCNISKVKWENTLDKIAKKLQGQFGENKTIVFNHSSGGDPEIVHHSFNCGGEFFYCNTTKLFSWNSTRTPNNSTDIITIPCRIKQIINRWQQVGRAIYAPPISGNISCSANITGLLLTRDGGDSNSTDNNTETFRPGGGDMRDNWRSELYKYKVVSIEPLGIAPTKARRRVVQREKRAVGMIGAMFLGFLGAAGSTMGAASVALTVQARQLLSGIVQQQNNLLRAIEAQQHMLQLTVWGIKQLQARVLAVERYLKDQQLLGIWGCSGKLICTTNVPWNISWSNRNLDDIWGNMTWMQWEREIDNYTGLIYSLLTESQTQQEQNEKELLELDKWASLWNWFDISNWLWYIRIFIMIVGGLVGLRIIFTILNVVNRVRKGYSPLSFQTRLPATRGPDRPEETEEEGGGRDRGRSETLVTGFLALIWDDLRSLCLFIYHRLRDLLLIATRSVELLGRRGWELLKYLWNLLQYWGQELRNSAVSLLNATAIAVAEGTDRIIEVAQRIGRAIIHIPRRIRQGAERALL	10	0.455	0.024	1.57
HIV-1 Env, rebound clone, placebo arm (protein) MRVKGIRKSYQPLWVGGILLLGMLMLCSTTEQLWVTVYYGVPVWKEATTTLFCASDAKGYDTEAHNVWATHACVPTDPNPQELKLENVTENFNMWKNGMVQQMHEDIISLWDQSIKPCVKLTPLCVTLNCSGVNINNTNANTTSNNTSWREMKEEIKNCSFNHTDTRNKMRKDYALFNSLDVIPIDRNDSTSYMLTSCNTSVITQACPKISFEPIPIHYCAPAGFAILKCNDKNFNGTGPCKNVSLVQCTHGIKPVVSTQLLLNGSLAEEDIVIRSENFTNNAKTIIVQLNSSIEITCIRPNNNTRKSIHLGPGAAFYATGDIIGDIRKAYCNISKVKWENTLDKIAKKLQGQFGENKTIVFNHSSGGDPEIVHHSFNCGGEFFYCNTTKLFSWNSTRTPNNSTDIITIPCRIKQIINRWQQVGRAIYAPPISGNISCSANITGLLLTRDGGDSNSTDNNTETFRPGGGDMRDNWRSELYKYKVVSIEPLGIAPTKARRRVVQREKRAVGMIGAMFLGFLGAAGSTMGAASVALTVQARQLLSDIVQQQNNLLRAIEAQQHMLQLTVWGIKQLQARVLAVERYLKDQQLLGIWGCSGKLICTTNVPWNISWSNRNLDDIWGNMTWMQWEREIDNYTGLIYSLLTESQTQQEQNEKELLELDKWASLWNWFDISNWLWYIRIFIMIVGGLVGLRIIFTILNVVNRVRKGYSPLSFQTRLPATRGPDRPEETEEEGGGRDRGRSETLVTGFLALIWDDLRSLCLFIYHRLRDLLLIATRSVELLGRRGWELLKYLWNLLQYWGQELRNSAVSLLNATAIAVAEGTDRIIEVAQRIGRAIIHIPRRIRQGAERALL	2	0.215	0.009	0.962
